Reference: patent US11364264B2, “Ex vivo antigen-presenting cells or activated CD-positive T cells for treatment of cancer” (priority 2016, dated 2022)

Legend:
[1] = test system: ovarian cancer and mesothelioma; details: previous study (Yuan J, et al. 2014); cited from earlier work
[2] = test system: Luc-ID8 ovarian cancer cells; assay: Syngeneic Luc-ID8 ovarian cancer model: tumor growth by bioluminescence imaging and survival; format: in vivo; details: 4 μg per mouse i.p.; for Median survival: saline 55 days; for Survival of tumor-bearing mice compared to saline: Log-rank, p=0.0253 (VIC-007), p=0.0002 (VIC-008)
[3] = test system: Luc-40L mesothelioma cancer cells; assay: Luc-40L mesothelioma model, survival (Example 4); format: in vivo, mouse; details: VIC-008 20 μg and/or AMD3100 1 μg/g body weight once a week for four weeks
[4] = test system: 40L mouse mesothelioma cell line; assay: Ex vivo restimulation with recombinant mesothelin, intracellular IFN-γ in CD8+ T cells, 40L mice
[5] = test system: AE17 mouse mesothelioma cell line; assay: Ex vivo restimulation with recombinant mesothelin, intracellular IFN-γ in CD8+ T cells, AE17 mice
[6] = test system: 40L mouse mesothelioma cell line; assay: Immune profiling by flow cytometry of tissues from 40L tumor-bearing mice; format: in vivo
[7] = test system: AE17 mouse mesothelioma cell line; assay: AE17 intraperitoneal malignant mesothelioma model: tumor weight and survival (Example 5); details: in vivo
[8] = test system: 40L mouse mesothelioma cell line; assay: 40L intraperitoneal malignant mesothelioma model: tumor weight and survival (Example 5); details: in vivo
[9] = test system: AE17 mouse mesothelioma cell line; format: in vivo; details: for Proportion of PD-1-expressing CD8+ T cells compared to saline / Proportion of CD8+ T cells in total live cells compared to saline: AE17; for Proportion of CD8+ T cells in total live cells compared to saline: one week after last treatment
[10] = 4 treatments at 7-day intervals, p<0.0001
[11] = 4 treatments at 7-day intervals

B1: VIC-007: Original scFv-MtbHsp70 fusion protein: anti-MSLN p4 scFv fused to full length MtbHsp70 with a (G4S)3 linker (protein)
chain: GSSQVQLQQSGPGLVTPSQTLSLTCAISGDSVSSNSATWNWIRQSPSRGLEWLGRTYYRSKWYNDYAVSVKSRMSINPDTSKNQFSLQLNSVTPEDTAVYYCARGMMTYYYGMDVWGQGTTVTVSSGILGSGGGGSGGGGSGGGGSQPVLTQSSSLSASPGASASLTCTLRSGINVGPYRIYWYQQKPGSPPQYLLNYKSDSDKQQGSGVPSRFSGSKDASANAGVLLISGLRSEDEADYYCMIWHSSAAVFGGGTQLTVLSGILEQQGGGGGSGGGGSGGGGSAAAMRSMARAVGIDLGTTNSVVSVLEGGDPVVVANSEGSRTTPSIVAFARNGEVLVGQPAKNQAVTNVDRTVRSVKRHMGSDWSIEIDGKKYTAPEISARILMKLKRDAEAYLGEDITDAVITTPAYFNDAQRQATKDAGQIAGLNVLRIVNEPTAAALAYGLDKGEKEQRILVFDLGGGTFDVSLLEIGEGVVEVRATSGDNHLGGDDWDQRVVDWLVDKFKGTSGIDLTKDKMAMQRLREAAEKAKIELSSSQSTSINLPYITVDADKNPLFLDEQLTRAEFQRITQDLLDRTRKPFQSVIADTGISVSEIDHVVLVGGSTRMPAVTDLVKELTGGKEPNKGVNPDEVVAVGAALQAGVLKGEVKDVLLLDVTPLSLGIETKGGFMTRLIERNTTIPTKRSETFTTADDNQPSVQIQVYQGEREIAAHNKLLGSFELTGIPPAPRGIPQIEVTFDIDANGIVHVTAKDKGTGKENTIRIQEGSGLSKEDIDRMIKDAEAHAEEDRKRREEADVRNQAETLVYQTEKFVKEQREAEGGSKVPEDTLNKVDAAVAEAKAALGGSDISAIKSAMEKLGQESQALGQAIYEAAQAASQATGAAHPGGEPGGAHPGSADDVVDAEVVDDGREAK
modifications: fusion protein
notes: Original scFv-MtbHsp70 fusion protein: anti-MSLN p4 scFv fused to full length MtbHsp70 with a (G4S)3 linker
In the case of B1, the “Control of tumor growth” value [1] is listed as “significant control of tumor growth”, the “Survival of tumor-bearing mice” value [1] is listed as “prolongation of the survival” and the “Intraperitoneal tumor growth (bioluminescence signals) compared to saline” value [2, 10] is listed as “significantly slowed tumor growth”. For the same molecule, the Median survival [2, 11] was 60 days and the “Survival of tumor-bearing mice compared to saline” value [2] was “significantly enhanced the survival”.

B2: VIC-008: New version of scFv-MtbHsp70 fusion protein (anti-MSLN scFv fused to MtbHsp70), redundant amino acids eliminated, F in place of V at position 381 (protein)
chain: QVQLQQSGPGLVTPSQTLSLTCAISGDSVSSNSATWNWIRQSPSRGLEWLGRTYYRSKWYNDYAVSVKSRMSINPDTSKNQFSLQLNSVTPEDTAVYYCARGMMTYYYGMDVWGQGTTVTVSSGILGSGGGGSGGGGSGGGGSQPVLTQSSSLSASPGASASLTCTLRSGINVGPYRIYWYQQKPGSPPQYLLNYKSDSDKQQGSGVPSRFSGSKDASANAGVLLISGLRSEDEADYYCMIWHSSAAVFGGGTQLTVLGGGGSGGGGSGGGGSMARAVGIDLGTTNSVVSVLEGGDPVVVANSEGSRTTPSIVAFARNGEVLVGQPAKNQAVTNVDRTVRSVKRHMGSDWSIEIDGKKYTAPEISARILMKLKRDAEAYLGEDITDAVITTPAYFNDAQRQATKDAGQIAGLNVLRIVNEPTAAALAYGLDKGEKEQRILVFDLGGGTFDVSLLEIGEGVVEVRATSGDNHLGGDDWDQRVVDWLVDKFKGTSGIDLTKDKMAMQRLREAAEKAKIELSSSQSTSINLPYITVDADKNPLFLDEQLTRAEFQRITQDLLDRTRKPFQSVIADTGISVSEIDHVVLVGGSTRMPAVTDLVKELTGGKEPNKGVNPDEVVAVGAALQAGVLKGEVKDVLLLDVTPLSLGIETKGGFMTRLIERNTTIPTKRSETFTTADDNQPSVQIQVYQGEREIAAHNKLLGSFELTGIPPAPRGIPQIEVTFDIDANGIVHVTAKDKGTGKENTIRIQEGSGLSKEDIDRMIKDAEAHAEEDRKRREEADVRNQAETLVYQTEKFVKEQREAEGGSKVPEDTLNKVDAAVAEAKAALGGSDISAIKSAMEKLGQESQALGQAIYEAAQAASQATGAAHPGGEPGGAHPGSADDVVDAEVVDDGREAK
modifications: fusion protein
In the case of B2, the “Survival of tumor-bearing mice compared to saline” value [3] is reported as “significantly enhanced the survival”, the “Mesothelin-specific IFN-γ expression in CD8+ T cells compared to saline” value [4] is reported as “significantly greater” and the “Mesothelin-specific IFN-γ expression in CD8+ T cells compared to saline” value ([5]; lymph node CD8+ T cells) is reported as “significantly greater”. The “Mesothelin-specific IFN-γ expression in CD8+ T cells compared to saline” value ([5]; splenic CD8+ T cells) was “significantly greater”, the “Proportion of CD8+ T cells in total live cells compared to saline” value ([6]; […], one week after last treatment) was “significantly increased” and the “Percentage of PD-1 expressing CD8+ T cells” value (from here on “Percentage”) ([6]; mouse, in vivo) was 43-76%. For the same molecule, the “Animal survival compared to saline” value [7] was “significantly prolonged”, the “Total weight of intraperitoneal tumors / tumor control compared to saline” value [7] was “generally reduced” and the “Animal survival compared to saline” value [8] was “significantly prolonged”. For the same molecule, the “Total weight of intraperitoneal tumors / tumor control compared to saline” value [8] was “generally reduced”, the “Percentage” value ([9]; AE17 tumors) was 28-47% and the “Proportion of PD-1-expressing CD8+ T cells compared to saline” value ([9]; lymph nodes) was “no significant difference”. For the same molecule, the “Proportion of CD8+ T cells in total live cells compared to saline” value ([9]; lymph nodes) was “significantly increased”, the “Percentage” value ([9]; spleen and lymph nodes, model not stated) was 5-10% and the “Proportion of PD-1-expressing CD8+ T cells compared to saline” value ([9]; spleens) was “no significant difference”. The “Proportion of CD8+ T cells in total live cells compared to saline” value ([9]; spleens) was “significantly increased”, the “Proportion of PD-1-expressing CD8+ T cells compared to saline” value ([9]; tumors) was “significantly more” and the “Proportion of CD8+ T cells in total live cells compared to saline” value ([9]; tumors) was “significantly increased”. For the same molecule, the “Intraperitoneal tumor growth (bioluminescence signals) compared to VIC-007” value [2, 10] was “further significantly delayed tumor growth”, the “Intraperitoneal tumor growth (bioluminescence signals) compared to saline” value [2, 10] was “significantly slowed tumor growth” and the Median survival [2, 11] was 65 days. For the same molecule, the “Survival of tumor-bearing mice compared to VIC-007” value ([2]; Log-rank p=0.0301) was “further significantly prolonged the survival” and the “Survival of tumor-bearing mice compared to saline” value [2] was “significantly enhanced the survival”.

Read-outs that look alike come from different tables or passages of the source.
